Test results published in paper PMC10770331, “The virulence regulator VirB from Shigella flexneri uses a CTP-dependent switch mechanism to activate gene expression” (Nature Communications, 2024).

Biological target: T1, VirB (Shigella flexneri) (UniProt P0A247)
T1 sequence: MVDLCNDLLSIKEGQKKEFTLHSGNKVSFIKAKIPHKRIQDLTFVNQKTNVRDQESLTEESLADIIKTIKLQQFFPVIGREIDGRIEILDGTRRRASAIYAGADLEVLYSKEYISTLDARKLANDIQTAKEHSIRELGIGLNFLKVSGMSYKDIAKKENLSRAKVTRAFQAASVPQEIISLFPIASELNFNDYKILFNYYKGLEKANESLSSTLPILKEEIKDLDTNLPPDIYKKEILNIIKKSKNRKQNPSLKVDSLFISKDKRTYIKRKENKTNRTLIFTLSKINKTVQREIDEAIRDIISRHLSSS
Assay: BLI
Settings: 5 mM Mg2+, 150 mM NaCl, BLI: 25 mM HEPES/NaOH pH 7.5, 150 mM (low stringency) or 500 mM (high stringency) NaCl, 5 mM MgCl2, 1 mM DTT, 10 uM BSA, 0.01% Tween 20, +/-1 mM nucleotide, recombinant protein, residues 1-309, label: 5' biotin-TEG on both strands

AATATATTCAATTAATAAATTTAGAAACTTGAGCCTGTTAACATAATCAAATTTTCTTTTGCTGTACATAATATGTACCTCGTGAGCATATGTAGTGCTCGTTTCATCATGAAATCCCACAAGATAAAGTGCCTGATGTATCAGGCTCGGAGTGTTATAGAAAAAGAGAGAACCCTGTTGAATAAGTATCTTTTTTGTTGTAAAACGAGGTACAA (double strand) [closed virS DNA (215 bp)]
binding result (1 mM CTP): binds
binding result (no nucleotide): binds

AATATATTCAATTAATAAATTTAGAAACTTGAGCCTGTTAACATAATCAAATTTTCTTTTGCTGTACATAATATGTACCTCGTGAGCATATGTAGTGCTCTGATATGAACTACATCCCACAAGATAAAGTGCCTGATGTATCAGGCTCGGAGTGTTATAGAAAAAGAGAGAACCCTGTTGAATAAGTATCTTTTTTGTTGTAAAACGAGGTACAA (double strand) [closed scrambled virS DNA (215 bp)]
binding result (1 mM CTP): binds
binding result (no nucleotide): binds
